Compound potency records, mixed from different reports. Data source: NIAID ChemDB in PubChem.

All rows: growth or infection tests; organism: Mycobacterium smegmatis; read-out: MIC

a–b is a range or a potency band.

CCCCCCCCCCCCCCCOC(=O)NC(CCC(=O)O)(CCC(=O)O)CCC(=O)O ; strain or isolate: mc155 ; result: 36 µg/mL
O=C(O)c1c2n(c3cc(N4CCC(N5CCCCC5)CC4)c([N+](=O)[O-])cc3c1=O)CS2 ; strain or isolate: ATCC 14468 MC2 ; method: agar ; result: 112 µM
CCCCCCCCCCN(CCCCCCCCCC)C(=O)NC(CCC(=O)O)(CCC(=O)O)CCC(=O)O ; strain or isolate: mc155 ; result: 54 µg/mL
O=C(O)c1c2n(c3cc(N4CCN(C(=O)C5COc6ccccc6O5)CC4)c([N+](=O)[O-])cc3c1=O)CS2 ; strain or isolate: ATCC 14468 MC2 ; method: agar ; result: 47.66 µM
NNC(=O)c1ccncc1 ; strain or isolate: MC^2 799 ; result: 15 µg/mL
CCCCCCCCCCCCCCC(=O)NC(CCC(=O)O)(CCC(=O)O)CCC(=O)O ; strain or isolate: mc155 ; result: 54 µg/mL
O=C(Nc1ccc(CN2CCOCC2)cc1)c1ccc(Cl)cc1 ; strain or isolate: 103599 ; result: >16 µg/mL
O=C(O)c1c2n(c3cc(N4CCC(n5c(=O)[nH]c6cc(Cl)ccc65)CC4)c([N+](=O)[O-])cc3c1=O)CS2 ; strain or isolate: ATCC 14468 MC2 ; method: agar ; result: 11.84 µM
NCCCNCc1ccc(Nc2ccn(CCCCN3CCC(N)CC3)c(=O)n2)nc1 ; method: turbidity ; result: 32–128 µg/mL
O=C(O)c1c2n(c3cc(N4CCN(Cc5ccc6c(c5)OCO6)CC4)c(F)cc3c1=O)CS2 ; strain or isolate: ATCC 14468 MC2 ; method: agar ; result: 53.25 µM
NCCCNC(=O)c1ccnc(Nc2ccn(CCOCCN3CCC(N)CC3)c(=O)n2)c1 ; method: turbidity ; result: 32–128 µg/mL
O=C(O)c1c2n(c3cc(N4CCC(O)(c5ccc(Cl)cc5)CC4)c(F)cc3c1=O)CS2 ; strain or isolate: ATCC 14468 MC2 ; method: agar ; result: 54.24 µM
O=C(/C=C/c1ccccc1)Nc1ccc(CN2CCOCC2)cc1 ; strain or isolate: 103599 ; result: >16 µg/mL
CCCCCCCCCCCCCCCCCCCCCCC(=O)NC(C)(CCC(=O)O)CCC(=O)O ; strain or isolate: mc155 ; result: 36 µg/mL
CNCCCOCc1ccc(Nc2ccn(CCCCN3CCC(N)CC3)c(=O)n2)nc1 ; method: turbidity ; result: <8 µg/mL
CCCCCCCCCC(CCCCCCCCC)OC(=O)NC(CCC(=O)O)(CCC(=O)O)CCC(=O)O ; strain or isolate: mc155 ; result: 54 µg/mL
O=C(/C=C/c1ccccc1)Nc1ccccc1Cn1ccnc1 ; strain or isolate: 103599 ; result: 8 µg/mL
CCCCCCCC(CCCCCCC)OC(=O)NC(CCC(=O)O)(CCC(=O)O)CCC(=O)O ; strain or isolate: mc155 ; result: 105 µg/mL
CC1CN(c2cc3c(cc2[N+](=O)[O-])c(=O)c(C(=O)O)c2n3CS2)CC(C)O1 ; strain or isolate: ATCC 14468 MC2 ; method: agar ; result: 63.87 µM
CCCCCCCCCCCCC(CCCCCCCCCCCC)OC(=O)NC(CCC(=O)O)(CCC(=O)O)CCC(=O)O ; strain or isolate: mc155 ; result: 71 µg/mL
O=C(/C=C/c1ccccc1)Nc1ccc(Cn2ccnc2)cc1 ; strain or isolate: 103599 ; result: >16 µg/mL
NC1CCN(CCCCn2ccc(Nc3ccc(CNC[C@@H](N)CO)cn3)nc2=O)CC1 ; method: turbidity ; result: <8 µg/mL

A second listing of 3 rows from above:

smiles,strain or isolate,method,result
NC1CCN(CCCCn2ccc(Nc3ccc(CNC[C@@H](N)CO)cn3)nc2=O)CC1,-,turbidity,<8 µg/mL
NNC(=O)c1ccncc1,MC^2 799,-,15 µg/mL
O=C(/C=C/c1ccccc1)Nc1ccc(Cn2ccnc2)cc1,103599,-,>16 µg/mL

Conditions beyond the fields shown may differ between rows. Blank or dashed fields: not listed here.